This is an account of results in ChEMBL document CHEMBL5346973 (J Med Chem, 2023).

By UniProt entry, the sequences of proteins in these tests, tags left out. Where a name states a change or a piece, a line headed by the entry shows the natural chain unless it says otherwise.
UniProt Q05941, whole entry, looked up: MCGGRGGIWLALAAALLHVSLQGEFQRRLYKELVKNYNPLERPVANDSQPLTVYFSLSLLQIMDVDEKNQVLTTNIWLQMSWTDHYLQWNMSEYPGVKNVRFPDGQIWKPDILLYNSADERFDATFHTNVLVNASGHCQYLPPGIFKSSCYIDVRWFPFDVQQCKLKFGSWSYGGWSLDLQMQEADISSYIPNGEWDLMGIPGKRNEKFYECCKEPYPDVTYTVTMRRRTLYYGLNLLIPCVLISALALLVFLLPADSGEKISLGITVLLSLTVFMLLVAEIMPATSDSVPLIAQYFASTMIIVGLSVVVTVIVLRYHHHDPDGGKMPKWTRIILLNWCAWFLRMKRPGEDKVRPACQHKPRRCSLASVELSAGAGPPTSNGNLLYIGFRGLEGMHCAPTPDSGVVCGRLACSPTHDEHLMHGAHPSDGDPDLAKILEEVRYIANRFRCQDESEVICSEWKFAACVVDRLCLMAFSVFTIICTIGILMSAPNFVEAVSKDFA
UniProt P43144: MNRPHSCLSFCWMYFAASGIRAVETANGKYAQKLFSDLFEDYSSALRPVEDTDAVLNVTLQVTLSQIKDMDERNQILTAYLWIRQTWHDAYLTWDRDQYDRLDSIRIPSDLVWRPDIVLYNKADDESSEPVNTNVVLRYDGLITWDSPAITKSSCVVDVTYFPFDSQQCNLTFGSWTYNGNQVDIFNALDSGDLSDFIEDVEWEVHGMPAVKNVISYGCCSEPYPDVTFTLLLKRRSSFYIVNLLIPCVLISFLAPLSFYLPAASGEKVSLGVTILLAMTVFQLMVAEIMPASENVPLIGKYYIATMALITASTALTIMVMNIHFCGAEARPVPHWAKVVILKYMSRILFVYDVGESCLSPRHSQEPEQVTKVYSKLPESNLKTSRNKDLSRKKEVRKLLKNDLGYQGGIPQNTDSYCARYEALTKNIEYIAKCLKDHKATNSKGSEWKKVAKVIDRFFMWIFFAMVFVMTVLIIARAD
UniProt Q9JLB5: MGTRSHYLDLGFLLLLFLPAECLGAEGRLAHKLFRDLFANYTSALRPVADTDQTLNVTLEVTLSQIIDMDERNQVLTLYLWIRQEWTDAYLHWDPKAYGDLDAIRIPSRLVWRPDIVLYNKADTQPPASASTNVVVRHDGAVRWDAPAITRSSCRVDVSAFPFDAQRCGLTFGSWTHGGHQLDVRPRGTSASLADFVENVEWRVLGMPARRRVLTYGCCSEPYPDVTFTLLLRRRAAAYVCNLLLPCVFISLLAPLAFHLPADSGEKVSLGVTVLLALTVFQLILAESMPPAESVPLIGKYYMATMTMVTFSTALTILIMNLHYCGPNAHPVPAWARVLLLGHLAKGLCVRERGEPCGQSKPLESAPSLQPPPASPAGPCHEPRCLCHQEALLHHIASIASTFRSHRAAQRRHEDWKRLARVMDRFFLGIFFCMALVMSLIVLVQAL
UniProt P09483: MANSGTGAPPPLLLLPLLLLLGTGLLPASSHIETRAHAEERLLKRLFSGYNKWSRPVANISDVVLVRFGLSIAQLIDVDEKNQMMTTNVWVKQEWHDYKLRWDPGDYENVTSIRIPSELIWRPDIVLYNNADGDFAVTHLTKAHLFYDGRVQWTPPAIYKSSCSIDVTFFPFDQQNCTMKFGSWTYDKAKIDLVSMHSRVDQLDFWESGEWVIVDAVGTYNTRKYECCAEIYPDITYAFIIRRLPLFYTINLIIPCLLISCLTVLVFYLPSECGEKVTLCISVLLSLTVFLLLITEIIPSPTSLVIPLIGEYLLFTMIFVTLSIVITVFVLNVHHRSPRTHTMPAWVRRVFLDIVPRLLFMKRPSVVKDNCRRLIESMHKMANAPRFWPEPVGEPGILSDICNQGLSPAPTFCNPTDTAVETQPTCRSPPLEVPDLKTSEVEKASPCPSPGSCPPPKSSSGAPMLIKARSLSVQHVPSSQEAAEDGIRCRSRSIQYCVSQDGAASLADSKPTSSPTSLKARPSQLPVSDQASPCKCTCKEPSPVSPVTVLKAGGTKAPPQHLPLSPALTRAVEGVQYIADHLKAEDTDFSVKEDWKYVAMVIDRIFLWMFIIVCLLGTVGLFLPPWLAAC
UniProt P12392, whole entry, looked up: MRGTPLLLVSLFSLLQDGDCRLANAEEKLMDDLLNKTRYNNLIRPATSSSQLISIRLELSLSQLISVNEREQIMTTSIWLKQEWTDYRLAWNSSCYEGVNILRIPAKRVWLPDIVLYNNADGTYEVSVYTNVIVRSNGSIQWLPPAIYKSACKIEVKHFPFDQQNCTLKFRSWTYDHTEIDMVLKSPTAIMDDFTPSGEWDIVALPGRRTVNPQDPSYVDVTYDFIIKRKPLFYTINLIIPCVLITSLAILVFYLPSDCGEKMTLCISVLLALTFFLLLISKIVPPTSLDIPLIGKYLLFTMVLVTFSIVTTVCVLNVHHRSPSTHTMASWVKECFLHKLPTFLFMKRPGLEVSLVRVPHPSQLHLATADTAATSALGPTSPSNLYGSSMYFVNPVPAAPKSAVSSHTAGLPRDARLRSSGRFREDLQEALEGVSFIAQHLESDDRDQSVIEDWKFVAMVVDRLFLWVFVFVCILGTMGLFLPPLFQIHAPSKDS
UniProt Q9UGM1: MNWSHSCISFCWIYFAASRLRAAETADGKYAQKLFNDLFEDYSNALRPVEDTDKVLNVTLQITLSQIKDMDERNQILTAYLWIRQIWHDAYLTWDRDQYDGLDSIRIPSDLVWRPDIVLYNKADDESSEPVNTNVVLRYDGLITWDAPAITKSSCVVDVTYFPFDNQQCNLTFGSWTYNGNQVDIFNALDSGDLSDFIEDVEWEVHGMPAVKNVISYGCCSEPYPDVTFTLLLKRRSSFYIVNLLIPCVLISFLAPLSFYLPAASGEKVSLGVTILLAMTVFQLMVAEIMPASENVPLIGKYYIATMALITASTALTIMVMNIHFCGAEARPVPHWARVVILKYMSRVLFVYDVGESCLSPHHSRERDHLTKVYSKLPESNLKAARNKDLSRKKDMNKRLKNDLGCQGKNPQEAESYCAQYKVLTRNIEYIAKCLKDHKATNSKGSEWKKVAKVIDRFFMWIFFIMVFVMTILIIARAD
UniProt Q9GZZ6: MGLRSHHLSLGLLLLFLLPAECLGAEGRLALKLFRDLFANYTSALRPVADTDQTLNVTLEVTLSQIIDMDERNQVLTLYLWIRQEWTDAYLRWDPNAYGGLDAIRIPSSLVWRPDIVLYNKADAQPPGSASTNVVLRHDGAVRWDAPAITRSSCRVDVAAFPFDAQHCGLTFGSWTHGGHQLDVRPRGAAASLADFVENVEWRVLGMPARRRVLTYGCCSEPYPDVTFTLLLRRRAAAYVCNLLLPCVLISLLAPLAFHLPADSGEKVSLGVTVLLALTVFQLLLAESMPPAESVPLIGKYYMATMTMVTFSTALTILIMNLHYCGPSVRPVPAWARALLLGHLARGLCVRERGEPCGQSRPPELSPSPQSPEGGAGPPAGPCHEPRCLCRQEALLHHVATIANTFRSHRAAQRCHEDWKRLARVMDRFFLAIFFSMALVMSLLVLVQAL
UniProt P12389: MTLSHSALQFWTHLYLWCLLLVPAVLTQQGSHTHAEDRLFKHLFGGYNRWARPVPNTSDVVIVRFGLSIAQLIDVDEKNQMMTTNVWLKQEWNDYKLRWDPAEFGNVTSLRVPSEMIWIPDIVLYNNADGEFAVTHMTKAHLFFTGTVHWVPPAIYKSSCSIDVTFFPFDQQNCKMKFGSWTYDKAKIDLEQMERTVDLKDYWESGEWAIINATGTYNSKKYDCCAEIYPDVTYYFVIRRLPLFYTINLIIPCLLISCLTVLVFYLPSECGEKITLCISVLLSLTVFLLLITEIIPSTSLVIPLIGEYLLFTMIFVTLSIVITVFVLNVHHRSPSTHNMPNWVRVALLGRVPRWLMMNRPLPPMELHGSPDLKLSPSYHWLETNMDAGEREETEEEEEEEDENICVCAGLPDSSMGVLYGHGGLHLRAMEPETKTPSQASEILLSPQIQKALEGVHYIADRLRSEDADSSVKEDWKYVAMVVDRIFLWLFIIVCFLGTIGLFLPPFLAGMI
UniProt P12390, whole entry, looked up: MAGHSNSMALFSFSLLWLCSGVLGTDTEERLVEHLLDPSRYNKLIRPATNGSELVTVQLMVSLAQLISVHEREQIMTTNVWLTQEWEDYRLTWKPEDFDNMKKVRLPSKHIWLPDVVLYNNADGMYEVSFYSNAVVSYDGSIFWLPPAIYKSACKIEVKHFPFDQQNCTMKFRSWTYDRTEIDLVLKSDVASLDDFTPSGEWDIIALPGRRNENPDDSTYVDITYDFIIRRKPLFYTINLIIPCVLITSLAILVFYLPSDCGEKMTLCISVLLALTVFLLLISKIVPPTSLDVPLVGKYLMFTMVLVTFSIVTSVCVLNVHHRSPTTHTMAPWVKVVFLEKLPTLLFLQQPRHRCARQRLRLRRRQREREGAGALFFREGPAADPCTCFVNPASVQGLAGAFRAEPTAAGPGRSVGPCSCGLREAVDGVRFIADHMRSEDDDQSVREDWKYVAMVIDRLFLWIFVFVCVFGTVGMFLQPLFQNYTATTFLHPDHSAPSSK
UniProt P04757, whole entry, looked up: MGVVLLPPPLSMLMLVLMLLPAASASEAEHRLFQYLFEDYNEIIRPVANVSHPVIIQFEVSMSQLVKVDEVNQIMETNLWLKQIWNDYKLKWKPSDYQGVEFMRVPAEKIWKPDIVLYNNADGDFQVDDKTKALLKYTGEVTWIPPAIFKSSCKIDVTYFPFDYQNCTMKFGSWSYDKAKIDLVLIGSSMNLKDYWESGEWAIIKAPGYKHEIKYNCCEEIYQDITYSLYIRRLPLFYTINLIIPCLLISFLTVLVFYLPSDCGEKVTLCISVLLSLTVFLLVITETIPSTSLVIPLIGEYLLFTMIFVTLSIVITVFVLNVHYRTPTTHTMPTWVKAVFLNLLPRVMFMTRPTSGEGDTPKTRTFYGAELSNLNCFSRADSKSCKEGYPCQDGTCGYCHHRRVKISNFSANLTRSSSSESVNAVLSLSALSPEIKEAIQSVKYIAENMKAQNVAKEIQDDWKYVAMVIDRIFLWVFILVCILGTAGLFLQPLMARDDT
UniProt P43143, whole entry, looked up: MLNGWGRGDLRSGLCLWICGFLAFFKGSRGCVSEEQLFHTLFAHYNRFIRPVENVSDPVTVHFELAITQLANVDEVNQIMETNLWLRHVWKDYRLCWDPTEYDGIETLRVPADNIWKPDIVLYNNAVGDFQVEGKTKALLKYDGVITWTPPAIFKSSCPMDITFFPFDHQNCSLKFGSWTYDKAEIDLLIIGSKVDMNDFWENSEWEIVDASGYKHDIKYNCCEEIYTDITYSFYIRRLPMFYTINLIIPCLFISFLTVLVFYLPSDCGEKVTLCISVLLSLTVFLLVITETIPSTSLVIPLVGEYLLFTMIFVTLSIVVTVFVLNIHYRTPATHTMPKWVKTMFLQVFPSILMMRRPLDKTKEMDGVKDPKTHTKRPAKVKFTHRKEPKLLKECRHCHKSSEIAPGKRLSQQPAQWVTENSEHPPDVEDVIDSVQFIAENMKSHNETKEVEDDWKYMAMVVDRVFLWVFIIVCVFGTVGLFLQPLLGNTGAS

The species named for test [1] is Rattus norvegicus. Kind of test: Selectivity ratio of IC50 for rat alpha7 nACh receptor to IC50 for rat alpha9alpha10 nACh receptor.
Test [2] deals with Neuronal acetylcholine receptor subunit alpha-7 (Rattus norvegicus) (UniProt Q05941). Kind of test: Antagonist activity at rat alpha7 nACh receptor expressed in Xenopus oocyte assessed as inhibition of acetylcholine-induced response at -70 mV holding potential by measuring ratio of IC50 by voltage-clamp based electrophysiological assay relative to GeXIVA. Conditions: filed as antagonist.

The target in test [3] is Nicotinic acetylcholine receptor alpha9/alpha10 (Rattus norvegicus) (UniProt P43144+Q9JLB5). Briefly: Antagonist activity at rat alpha9alpha10 nACh receptor expressed in Xenopus oocyte assessed as inhibition of acetylcholine-induced response at -70 mV holding potential by measuring ratio of IC50 by voltage-clamp based electrophysiological assay relative to GeXIVA. In kind it is cell-based. Conditions: filed as antagonist.

The target in test [4] is Neuronal acetylcholine receptor; alpha4/beta4 (Rattus norvegicus) (UniProt P09483+P12392). Briefly: Antagonist activity at rat alpha4beta4 nACh receptor expressed in Xenopus oocyte assessed as inhibition of acetylcholine-induced response at -70 mV holding potential by measuring ratio of IC50 by voltage-clamp based electrophysiological assay relative to GeXIVA[1,4]. Conditions: filed as antagonist.

Test [5] addresses Neuronal acetylcholine receptor; alpha9/alpha10 (Homo sapiens) (UniProt Q9UGM1+Q9GZZ6). Briefly: Antagonist activity at human alpha9alpha10 nACh receptor expressed in Xenopus oocyte assessed as inhibition of acetylcholine-induced response at -70 mV holding potential by measuring ratio of IC50 by voltage-clamp based electrophysiological assay relative to GeXIVA[1,4]. The following applies: filed as antagonist.

Test [6] concerns the target Neuronal acetylcholine receptor; alpha2/beta4 (Rattus norvegicus) (UniProt P12389+P12392). Briefly: Antagonist activity at rat alpha2beta4 nACh receptor expressed in Xenopus oocyte assessed as inhibition of acetylcholine-induced response at -70 mV holding potential by measuring ratio of IC50 by voltage-clamp based electrophysiological assay relative to GeXIVA[1,4]. Conditions: filed as antagonist.

Test [7] deals with Neuronal acetylcholine receptor; alpha4/beta2 (Rattus norvegicus) (UniProt P09483+P12390). Kind of test: Antagonist activity at rat alpha4beta2 nACh receptor expressed in Xenopus oocyte assessed as inhibition of acetylcholine-induced response at -70 mV holding potential by measuring ratio of IC50 by voltage-clamp based electrophysiological assay relative to GeXIVA[1,4]. The following applies: filed as antagonist.

The target in test [8] is Neuronal acetylcholine receptor; alpha2/beta2 (Rattus norvegicus) (UniProt P12389+P12390). Kind of test: Antagonist activity at rat alpha2beta2 nACh receptor expressed in Xenopus oocyte assessed as inhibition of acetylcholine-induced response at -70 mV holding potential by measuring ratio of IC50 by voltage-clamp based electrophysiological assay relative to GeXIVA[1,4]. Conditions: filed as antagonist.

Test [9] addresses Neuronal acetylcholine receptor; alpha3/beta2 (Rattus norvegicus) (UniProt P04757+P12390). Briefly: Antagonist activity at rat alpha3beta2 nACh receptor expressed in Xenopus oocyte assessed as inhibition of acetylcholine-induced response at -70 mV holding potential by measuring ratio of IC50 by voltage-clamp based electrophysiological assay relative to GeXIVA[1,4]. Conditions: filed as antagonist.

For test [10], the target named is Nicotinic acetylcholine receptor alpha6/alpha3/beta4 (Rattus norvegicus) (UniProt P04757+P12392+P43143). Briefly: Antagonist activity at rat alpha6/alpha3beta4 nACh receptor expressed in Xenopus oocyte assessed as inhibition of acetylcholine-induced response at -70 mV holding potential by measuring ratio of IC50 by voltage-clamp based electrophysiological assay relative to GeXIVA[1,4]. The following applies: filed as antagonist.

Test [11] addresses Neuronal acetylcholine receptor; alpha3/beta4 (Rattus norvegicus) (UniProt P04757+P12392). Briefly: Antagonist activity at rat alpha3beta4 nACh receptor expressed in Xenopus oocyte assessed as inhibition of acetylcholine-induced response at -70 mV holding potential by measuring ratio of IC50 by voltage-clamp based electrophysiological assay relative to GeXIVA[1,4]. The following applies: filed as antagonist.

Molecules are shown by their SMILES.

With `CC[C@H](C)[C@@H]1NC(=O)[C@H](CCCNC(=N)N)NC(=O)[C@H](CCCNC(=N)N)NC(=O)[C@@H]2CSSC[C@H](NC(=O)[C@H](Cc3ccc(O)cc3)NC(=O)[C@H](CCCNC(=N)N)NC(=O)CNC(=O)[C@H](CO)NC(=O)[C@H](CO)NC(=O)[C@H](CCCNC(=N)N)NC(=O)[C@@H](NC(=O)[C@@H](N)[C@@H](C)O)CSSC[C@@H](C(=O)N[C@H](C(=O)O)C(C)C)NC(=O)[C@H](C)NC(=O)[C@H](CC(=O)O)NC(=O)[C@H]([C@@H](C)O)NC1=O)C(=O)N[C@@H](C)C(=O)N[C@@H](CO)C(=O)N1CCC[C@H]1C(=O)N[C@@H](Cc1ccc(O)cc1)C(=O)N[C@@H](CC(=O)O)C(=O)N[C@@H](CCCNC(=N)N)C(=O)N[C@@H](CCCNC(=N)N)C(=O)N[C@@H](CCCNC(=N)N)C(=O)N[C@@H](CCCNC(=N)N)C(=O)N[C@@H](Cc1ccc(O)cc1)C(=O)N2`, the Ratio IC50 in test [1] turned out to be 250; in test [2] it was 3.1; in test [3], 2.2.
The corresponding values for `CC[C@H](C)[C@@H]1NC(=O)[C@H](CCCNC(=N)N)NC(=O)[C@H](CCCNC(=N)N)NC(=O)[C@@H](NC(=O)[C@H](Cc2ccc(O)cc2)NC(=O)[C@H](CCCNC(=N)N)NC(=O)[C@H](CCCNC(=N)N)NC(=O)[C@H](CCCNC(=N)N)NC(=O)[C@H](CCCNC(=N)N)NC(=O)[C@H](CC(=O)O)NC(=O)[C@H](Cc2ccc(O)cc2)NC(=O)[C@@H]2CCCN2C(=O)[C@H](CO)NC(=O)[C@H](CCCNC(=N)N)NC(=O)[C@@H]2CSSC[C@H](NC(=O)[C@@H](N)[C@@H](C)O)C(=O)N[C@@H](CCCNC(=N)N)C(=O)N[C@@H](CO)C(=O)N[C@@H](CO)C(=O)NCC(=O)N[C@@H](CCCNC(=N)N)C(=O)N[C@@H](Cc3ccc(O)cc3)C(=O)N2)CSSC[C@@H](C(=O)N[C@H](C(=O)O)C(C)C)NC(=O)[C@H](C)NC(=O)[C@@H](C)NC(=O)[C@H]([C@@H](C)O)NC1=O` are 112, 2.2 and 1.1.
For the molecule `CC(C)[C@H](NC(=O)[C@@H]1CSSC[C@H](NC(=O)[C@@H](N)[C@@H](C)O)C(=O)N[C@@H](CCCNC(=N)N)C(=O)N[C@@H](CO)C(=O)N[C@@H](CO)C(=O)NCC(=O)N[C@@H](CCCNC(=N)N)C(=O)N[C@@H](Cc2ccc(O)cc2)C(=O)N[C@H]2CSSC[C@H](NC(=O)[C@H](Cc3ccc(O)cc3)NC(=O)[C@H](CCCNC(=N)N)NC(=O)[C@H](CCCNC(=N)N)NC(=O)[C@H](CCCNC(=N)N)NC(=O)[C@H](CCCNC(=N)N)NC(=O)[C@H](CC(=O)O)NC(=O)[C@H](Cc3ccc(O)cc3)NC(=O)[C@@H]3CCCN3C(=O)[C@H](CO)NC(=O)[C@H](CCCNC(=N)N)NC2=O)C(=O)N[C@@H](CCCNC(=N)N)C(=O)N[C@@H](CCCNC(=N)N)C(=O)N[C@@H](C)C(=O)N[C@@H]([C@@H](C)O)C(=O)N[C@@H](CC(=O)O)C(=O)N[C@@H](C)C(=O)N1)C(=O)O`, the Ratio IC50 in [1] was 971; in [4] it was 2.3; in [5], 0.1; in test [6] it was 0.9; in test [7], 4.3; in test [2], 0.5. The Ratio IC50 worked out at 6.8 in test [8]; 1.2 in test [9]; 3 in test [10]; 1.8 in [11]; 0.1 in test [3].
Take `CC[C@H](C)[C@@H]1NC(=O)[C@H](CCCNC(=N)N)NC(=O)[C@H](CCCNC(=N)N)NC(=O)[C@@H](NC(=O)[C@H](Cc2ccc(O)cc2)NC(=O)[C@H](CCCNC(=N)N)NC(=O)[C@H](CCCNC(=N)N)NC(=O)[C@H](CCCNC(=N)N)NC(=O)[C@H](CCCNC(=N)N)NC(=O)[C@H](CC(=O)O)NC(=O)[C@H](Cc2ccc(O)cc2)NC(=O)[C@@H]2CCCN2C(=O)[C@@H](CO)NC(=O)[C@H](C)NC(=O)[C@@H]2CSSC[C@H](NC(=O)[C@@H](N)[C@@H](C)O)C(=O)N[C@@H](CCCNC(=N)N)C(=O)N[C@@H](CO)C(=O)N[C@@H](CO)C(=O)NCC(=O)N[C@@H](CCCNC(=N)N)C(=O)N[C@@H](Cc3ccc(O)cc3)C(=O)N2)CSSC[C@@H](C(=O)N[C@H](C(=O)O)C(C)C)NC(=O)[C@H](C)NC(=O)[C@H](CC(=O)O)NC(=O)[C@H]([C@@H](C)O)NC1=O`: the results for the Ratio IC50 in test [1], in test [2] and in test [3] were 43.4, 4.7 and 5.9, respectively.
As to `CC[C@H](C)[C@@H]1NC(=O)[C@H](CCCNC(=N)N)NC(=O)[C@H](CCCNC(=N)N)NC(=O)[C@@H]2CSSC[C@H](NC(=O)[C@H](Cc3ccc(O)cc3)NC(=O)[C@H](CCCNC(=N)N)NC(=O)CNC(=O)[C@H](CO)NC(=O)[C@H](CO)NC(=O)[C@H](CCCNC(=N)N)NC(=O)[C@@H](NC(=O)[C@@H](N)[C@@H](C)O)CSSC[C@@H](C(=O)N[C@H](C(=O)O)C(C)C)NC(=O)[C@H](C)NC(=O)[C@H](CC(=O)O)NC(=O)[C@H]([C@@H](C)O)NC1=O)C(=O)N[C@@H](CCCNC(=N)N)C(=O)N[C@@H](CO)C(=O)N[C@@H](C)C(=O)N[C@@H](Cc1ccc(O)cc1)C(=O)N[C@@H](CC(=O)O)C(=O)N[C@@H](CCCNC(=N)N)C(=O)N[C@@H](CCCNC(=N)N)C(=O)N[C@@H](CCCNC(=N)N)C(=O)N[C@@H](CCCNC(=N)N)C(=O)N[C@@H](Cc1ccc(O)cc1)C(=O)N2`, the Ratio IC50 was found to be 178 in test [1], 0.6 in [2] and 0.6 in test [3].
